## Positions that govern dimerization of the HIV-1 5' RNA

Values reported by Ye et al. 2022 (doi:10.1038/s41594-022-00746-2).

Sequence of the HIV-1 NL4-3 5' RNA, positions 1 to 437, as numbered in the source:
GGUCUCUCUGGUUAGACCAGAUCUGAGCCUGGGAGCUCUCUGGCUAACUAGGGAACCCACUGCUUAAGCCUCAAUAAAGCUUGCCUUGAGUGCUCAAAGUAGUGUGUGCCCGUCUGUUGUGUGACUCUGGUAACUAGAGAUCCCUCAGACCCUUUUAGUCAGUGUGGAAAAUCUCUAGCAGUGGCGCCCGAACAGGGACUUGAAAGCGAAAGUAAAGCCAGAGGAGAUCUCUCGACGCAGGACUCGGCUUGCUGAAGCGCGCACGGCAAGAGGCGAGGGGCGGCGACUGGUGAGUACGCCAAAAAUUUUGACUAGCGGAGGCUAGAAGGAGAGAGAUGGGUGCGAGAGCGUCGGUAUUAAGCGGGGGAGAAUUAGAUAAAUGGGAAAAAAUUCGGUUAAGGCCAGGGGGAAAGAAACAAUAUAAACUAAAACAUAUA

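Mutant RNA libraries with 1G, 2G or 3G starts, with or without cap, were folded at 37 °C for 30 min. Monomer and dimer bands were cut from native gels after folding in high salt (300 mM KCl, 5 mM MgCl2) or low salt (40 mM KCl, 0.1 mM MgCl2). Kdimer compares mutation frequencies in monomer and dimer, corrected for sequencing errors.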

Values are log2 Kdimer, the median over the changes at each position: higher means that changes there hinder dimer formation, below 0 that they favour it.
Sample: 3G capped high-salt.
One numbering serves 1G, 2G and 3G.
A position is written with its base where known.
The source gives no letters past position 437.

position | domain | 3G capped high-salt
493 | none | 0.00
G251 | SL1 | 4.04
499 | none | -0.04
G272 | SL1 | -0.61
U174 | PBS | -0.47
C312 | SL3 | 0.31
A210 | PBS | -0.02
U30 | TAR | -0.05
462 | none | -0.10
G184 | PBS | 0.07
G130 | PAS | 0.42
C143 | PBS | 0.04
G90 | PolyA | -0.26
C134 | PBS | -0.22
502 | none | 0.18
U71 | PolyA | -0.10
C231 | CU | 0.04
G83 | PolyA | -0.11
A194 | PBS | -0.02
A242 | none | 0.69
A220 | antiPAS | 0.19
G162 | PBS | 0.03
U232 | CU | 0.22
U135 | PBS | -0.15
441 | none | -0.02
A418 | none | 0.13
G92 | PolyA | 0.46
C69 | PolyA | -0.23
C48 | TAR | -0.11
C125 | PAS | -0.07
A168 | PBS | 0.06
C297 | SL2 | -0.21
G277 | SL1 | 2.56
A430 | none | -0.05
G282 | none | 0.40
C432 | none | 0.22
A380 | none | -0.02
A326 | none | 0.06
G361 | none | 0.15
A286 | SL2 | 0.42
U86 | PolyA | -0.09
C233 | CU | 0.82
C144 | PBS | 0.14
G365 | none | 0.09
A411 | none | 0.00
438 | none | -0.01
C150 | PBS | -0.06
454 | none | 0.01
467 | none | 0.02
A34 | TAR | 0.01
515 | none | 0.05
496 | none | -0.06
U291 | SL2 | -0.31
A215 | PBS | -0.46
C281 | none | 0.45
U372 | none | -0.09
G178 | PBS | 0.21
G278 | none | 0.00
480 | none | 0.17
448 | none | 0.07
G261 | SL1 | 5.08
G197 | PBS | 0.26
A170 | PBS | 0.09
A435 | none | -0.04
U288 | SL2 | -0.44
A416 | none | 0.04
C80 | PolyA | -0.22
G254 | SL1 | 2.17
A319 | SL3 | 0.09
G42 | TAR | -0.47

The last 5 entries again:

{"position": "A416", "domain": "none", "3G capped high-salt": 0.04}
{"position": "C80", "domain": "PolyA", "3G capped high-salt": -0.22}
{"position": "G254", "domain": "SL1", "3G capped high-salt": 2.17}
{"position": "A319", "domain": "SL3", "3G capped high-salt": 0.09}
{"position": "G42", "domain": "TAR", "3G capped high-salt": -0.47}